Pooled drug test results. Numbers come from NIAID ChemDB, via PubChem.

Shared fields: tests in culture; agent: HIV-2; measure: EC50

ECn: concentration that inhibits the pathogen or its effect by n%. Conditions beyond the fields shown may differ between rows. Blank or dashed fields: not listed here.

compound,cell line,changes,method,strain or isolate,value
Cc1ccc2c(c1)COP(=O)(OC[C@H]1O[C@@H](n3cc(C)c(=O)[nH]c3=O)C[C@@H]1N=[N+]=[N-])O2,CEM + CEM/O,,,,0.006 µM
CC(C)c1cc(=O)oc2c3c(c4c(c12)OC(C)(C)C=C4)OC(C)C(C)C3=O,CEM + CEM-SS,,,ROD,0.17 µM
Cc1cn([C@@H]2O[C@H](CO[Si](C)(C)C(C)(C)C)[C@@H](O)[C@H]2O[Si](C)(C)C(C)(C)C)c(=O)n(CC(=O)ON)c1=O,MT-4,,cytopathic effect / trypan blue,ROD,>2 µM
COc1ccc(Cn2cc(CSc3nc(Cc4cccc5ccccc45)c(C)c(=O)[nH]3)nn2)cc1,,,MTT,ROD,>26.53 µM
COc1ccc2nc3n(c2c1)C(c1c(F)cccc1Cl)SC3,MT-4,,cytopathic effect / MTT,ROD,>373 µM
O=c1[nH]c(=O)n([C@H]2C[C@H](F)[C@@H](CO)O2)cc1C(OCC(F)(F)F)OCC(F)(F)F,CEM,,p24,,35 µg/mL
O=C(N/N=C/c1ccc([N+](=O)[O-])cc1)c1csc(N2N=C(c3ccccc3)CC2c2ccc(Cl)cc2)n1,MT-4,,MTT / absorbance,ROD,>105.9 µM
Fc1cccc(F)c1C1SCc2nc3cc(C(F)(F)F)ccc3n21,MT-4,,cytopathic effect / MTT,ROD,>351 µM
Cc1cn([C@@H]2O[C@H](CO[Si](C)(C)C(C)(C)C)[C@@]3(OS(=O)(=O)C=C3N)[C@H]2O[Si](C)(C)C(C)(C)C)c(=O)[nH]c1=O,MT-4,,cytopathic effect / trypan blue,ROD,>10 µM
Nc1nc(-c2ccc(Br)cc2Br)c(SCC(=O)Nc2ccccc2F)s1,MT-4,,MTT,ROD,>24.94 µM
Nc1nc(Nc2ccccc2)c2ncn(CCOCP(=O)(O)O)c2n1,MT-4,,cytopathic effect / MTT,ROD,35.1 µg/mL
NC(=O)c1ccc(Cn2cc(CSc3nc(Cc4cccc5ccccc45)cc(=O)[nH]3)nn2)cc1,,,MTT,ROD,>105 µM
Cc1cn([C@H]2C=C[C@@H](CO[Si](C)(C)C(C)(C)C)O2)c(=O)n(CC(=O)O)c1=O,CEM,,syncytia,ROD,>50 µM
NNC(=O)c1csc(N2N=C(c3ccccc3)CC2c2ccc(Cl)cc2)n1,MT-4,,MTT / absorbance,ROD,>125 µM
CCOP(=O)(/C=C/n1cc(I)c(=O)[nH]c1=O)OCC,CEM + CEM-SS,,,ROD,>200 µM
CC(=O)c1ccc(Cn2cc(CSc3nc(Cc4c(Cl)cccc4Cl)c(C)c(=O)[nH]3)nn2)cc1,,,MTT,ROD,>32.58 µM
CC(C)N1C(=O)c2cccn2S(=O)(=O)c2ccccc21,MT-4,,cytopathic effect / MTT,,>100 µM
O=c1[nH]c(=O)n(/C=C\P(=O)(O)O)cc1F,CEM + CEM-SS,,,ROD,>200 µM
Oc1cc(O)c2c(c1)O[C@H](c1ccc(O)c(O)c1)[C@@H](O)C2,C8166,,ELISA,ROD,5 µg/mL
Cc1cn([C@H]2C[C@H](N=[N+]=[N-])[C@@H](CN3C(=O)c4cc(Cl)c(Cl)cc4C3=O)O2)c(=O)[nH]c1=O,CEM,,syncytia,ROD,17 µM
Cc1ccccc1NC(=O)CSc1sc(Cl)nc1-c1ccc(Br)cc1Br,MT-4,,MTT,ROD,>26.94 µM
O=c1[nH]c(SCc2cn(Cc3ccc(F)cc3)nn2)nc(Cc2cccc3ccccc23)c1I,,,MTT,ROD,>81.81 µM
CCC(C)Nc1nc(N)nc2c1ncn2CCOCP(=O)(O)O,CEM,,cytopathic effect / MTT,ROD,3 µg/mL
C#C[C@]1(CO)O[C@@H](n2cnc3c(N)nc(F)nc32)CC1O,MAGIC-5A,Q151M M184V,β-galactosidase / absorbance,ROD9,0.0059 µM
CCc1cc(NCc2nc3c(Cl)ccc(Cl)c3o2)c(=O)[nH]c1C,MT-4,RT-S102L E219D,cytopathic effect / MTT,EHO,>71 µM
Oc1cc(O)c2c(c1)O[C@H](c1ccc(O)c(O)c1)[C@H](O)C2,C8166,,ELISA,ROD,2 µg/mL
Cc1ccnc2c1NC(=O)c1cccnc1N2C1CC1,MT-4,,cytopathic effect / MTT,EHO,>97.6 µM
O=C(N/N=C/c1ccccc1)c1csc(N2N=C(c3ccccc3)CC2c2ccc(Cl)cc2)n1,MT-4,,MTT / absorbance,ROD,>0.45 µM
C=CCN1C(=O)c2cccn2S(=O)(=O)c2cc(Cl)ccc21,MT-4,,cytopathic effect / MTT,,>100 µM
Cc1cn([C@@H]2O[C@H](CO[Si](C)(C)C(C)(C)C)[C@@H](O)[C@H]2O[Si](C)(C)C(C)(C)C)c(=O)n(CCO)c1=O,CEM,,syncytia,ROD,>50 µM
CCOCn1c(Cc2ccccc2)c(C(C)C)c(=O)[nH]c1=O,MT-4,RT-S102L,cytopathic effect / MTT,EHO,25.8 µM
Cc1cn([C@H]2C[C@H](N=[N+]=[N-])[C@@H](CN3C(=O)c4ccc(C(=O)OCC56CC7CC(CC(C7)C5)C6)cc4C3=O)O2)c(=O)[nH]c1=O,CEM,,syncytia,ROD,0.11 µM
Cc1cn([C@@H]2O[C@H](CO[Si](C)(C)C(C)(C)C)[C@@H](O)[C@H]2O[Si](C)(C)C(C)(C)C)c(=O)n(CC(=O)O)c1=O,MT-4,,cytopathic effect / trypan blue,ROD,>10 µM
O=C(c1ccccc1)c1ccc2nc3n(c2c1)C(c1c(F)cccc1Cl)SC3,MT-4,,cytopathic effect / MTT,ROD,>1.2 µM
CC(C)(C)[Si](C)(C)OC[C@H]1O[C@@H](n2ccc(=O)n(CC(=O)O)c2=O)[C@H](O[Si](C)(C)C(C)(C)C)[C@@H]1O,CEM,,syncytia,ROD,>10 µM
Cc1cn([C@@H]2O[C@H](CO[Si](C)(C)C(C)(C)C)C3(OS(=O)(=O)C=C3N)[C@H]2O[Si](C)(C)C(C)(C)C)c(=O)n(CC(=O)N[C@@H](CC(=O)O)C(=O)O)c1=O,MT-4,,cytopathic effect / trypan blue,ROD,145 µM
O=c1[nH]c(=O)n([C@H]2CC(F)(F)[C@@H](CO)O2)cc1COCC(F)(F)F,CEM,,p24,,≥100 µg/mL
CC(C)c1cc(=O)oc2c3c(c4c(c12)OC(C)(C)C=C4)C[C@H](C)[C@@H](C)[C@@H]3O,CEM + CEM-SS,,,ROD,>10 µM
CCOP(=O)(/C=C/n1cc(CO)c(=O)[nH]c1=O)OCC,CEM + CEM-SS,,,ROD,>200 µM
O=c1cc(Cc2c(Cl)cccc2Cl)nc(SCc2cn(Cc3ccccc3)nn2)[nH]1,,,MTT,ROD,>273 µM
O=c1cc(-c2ccccc2)oc2cc(O)cc(O)c12,C8166,,ELISA,ROD,40 µg/mL
O=C(c1ccccc1)c1ccc2c(c1)nc1n2C(c2c(F)cccc2Cl)SC1,MT-4,,cytopathic effect / MTT,ROD,>26.7 µM
O=c1[nH]c(=O)n(/C=C\P(=O)(O)O)cc1CO,CEM + CEM-SS,,,ROD,>200 µM
Cc1cc([N+](=O)[O-])ccc1NC(=O)CSc1sc(Cl)nc1-c1ccc(Br)cc1Br,MT-4,,MTT,ROD,>127.4 µM
Cc1cn([C@H]2C[C@H](N=[N+]=[N-])[C@@H](COP3(=O)OCc4ccccc4O3)O2)c(=O)[nH]c1=O,CEM + CEM/O,,,,0.005 µM
C[C@H](Cn1cnc2c(N)ncnc21)OCP(=O)(O)O,MT-4,,cytopathic effect / MTT,ROD,1.69 ± 0.35 µg/mL
O=C(N/N=C/c1ccc(Cl)cc1Cl)c1csc(N2N=C(c3ccccc3)CC2c2ccc(Cl)cc2)n1,MT-4,,MTT / absorbance,ROD,>94.9 µM
O=c1[nH]c(=O)n([C@H]2C[C@H](O)[C@@H](CO)O2)cc1COCC(F)(F)F,CEM,,p24,,100 µg/mL
CCOP(=O)(/C=C/n1ccc(N)nc1=O)OCC,CEM + CEM-SS,,,ROD,>200 µM
Nc1nc(-c2ccc(Br)cc2Br)c(SCC(=O)Nc2ccccc2Cl)s1,MT-4,,MTT,ROD,>23.67 µM
O=C(O[C@@H]1Cc2c(O)cc(O)cc2O[C@@H]1c1ccc(O)c(O)c1)c1cc(O)c(O)c(O)c1,C8166,,ELISA,ROD,1 µg/mL
CC(C)(C)[Si](C)(C)OC[C@H]1O[C@@H](n2cnc3c(=O)n(CC(=O)O)cnc32)[C@H](O[Si](C)(C)C(C)(C)C)[C@@H]1O,CEM,,syncytia,ROD,15 µM
CCOC(=O)c1csc(N2N=C(c3ccccc3)CC2c2ccc(Cl)cc2)n1,MT-4,,MTT / absorbance,ROD,>11.51 µM
Cc1cn([C@@H]2O[C@H](CO[Si](C)(C)C(C)(C)C)C3(OS(=O)(=O)C=C3N)[C@H]2O[Si](C)(C)C(C)(C)C)c(=O)n(CC(=O)N[C@H](C(=O)OCc2ccccc2)C(C)C)c1=O,CEM,,syncytia,ROD,>50 µM
CC(=O)OC[C@H]1O[C@@H](n2cc(C)c(=O)[nH]c2=O)C[C@@H]1N(C)OC(C)=O,MT-4,,trypan blue,ROD,75 µg/mL
CC(C)(C)OC(=O)N[C@@H](Cc1ccccc1)[C@H](O)CNC[C@@H](O)[C@H](Cc1ccccc1)NC(=O)OC(C)(C)C,CEM + CEM-SS,,cytopathic effect / XTT,CBL-20,0.33 µM
Cc1cn([C@H]2C[C@H](N=[N+]=[N-])[C@@H](CN3C(=O)c4c(Br)c(Br)c(Br)c(Br)c4C3=O)O2)c(=O)[nH]c1=O,CEM + CEM TK-,,syncytia,ROD,>140 µM
CCCC(C)(C)[Si](C)(C)OC[C@H]1O[C@@H](n2cc(C)c(=O)n(CC(=O)O)c2=O)[C@H](O[Si](C)(C)C(C)(C)CCC)[C@@H]1O,CEM,,syncytia,ROD,>10 µM
CN(C)CCCNc1nc(N)nc2c1ncn2CCOCP(=O)(O)O,MT-4,,cytopathic effect / MTT,ROD,7.03 µg/mL
O=c1[nH]cnc2c1ncn2[C@H]1CC[C@@H](CO)O1,PBMC,,ELISA,2300,3.35 µM
COC(=O)Cn1c(=O)c(C)cn([C@H]2C[C@H](N=[N+]=[N-])[C@@H](CO[Si](C)(C)C(C)(C)C)O2)c1=O,CEM,,syncytia,ROD,>10 µM
Cc1cn([C@H]2C[C@H](N=[N+]=[N-])[C@@H](COP3(=O)OCc4cc(Cl)ccc4O3)O2)c(=O)[nH]c1=O,CEM + CEM TK-,,,,>40 µM
C[C@H](C[n+]1c[nH]c2c(NCCCCCCCC3CCCCC3)nc(N)nc21)OCP(=O)(O)O,MT-4,,cytopathic effect / MTT,ROD,7 ± 2.6 µg/mL
O=C1Nc2ccc(Cl)cc2S(=O)(=O)n2cccc21,MT-4,,cytopathic effect / MTT,,>100 µM
Cc1cc(C)c2c(c1)COP(=O)(OC[C@H]1O[C@@H](n3cc(C)c(=O)[nH]c3=O)C[C@@H]1N=[N+]=[N-])O2,CEM + CEM/O,,,,0.017 µM
CCOP(=O)(/C=C\n1cc(F)c(=O)[nH]c1=O)OCC,CEM + CEM-SS,,,ROD,>200 µM
O=C(N/N=C/c1ccc(F)cc1)c1csc(N2N=C(c3ccccc3)CC2c2ccc(Cl)cc2)n1,MT-4,,MTT / absorbance,ROD,>0.5 µM
Cc1cn([C@@H]2O[C@H](COC(=O)c3ccccc3)[C@@H](O)[C@H]2OC(=O)c2ccccc2)c(=O)n(CC(=O)O)c1=O,MT-4,,cytopathic effect / trypan blue,ROD,>50 µM
Cc1cn([C@H]2C[C@H](N(C)O)[C@@H](CO)O2)c(=O)[nH]c1=O,CEM,,syncytia,ROD,5.3 µg/mL
CCOP(=O)(/C=C\n1cc(CO)c(=O)[nH]c1=O)OCC,CEM + CEM-SS,,,ROD,>200 µM
O=C(N/N=C/c1ccccc1O)c1csc(N2N=C(c3ccccc3)CC2c2ccc(Cl)cc2)n1,MT-4,,MTT / absorbance,ROD,>7.33 µM
Cc1cn([C@H]2C[C@H](N=[N+]=[N-])[C@@H](CN3C(=O)c4c(Cl)c(Cl)c(Cl)c(Cl)c4C3=O)O2)c(=O)[nH]c1=O,CEM,,syncytia,ROD,14.1 µM

10 of the rows above, restated:

compound	cell line	changes	method	strain or isolate	value
Cc1cn([C@H]2C[C@H](N=[N+]=[N-])[C@@H](COP3(=O)OCc4cc(Cl)ccc4O3)O2)c(=O)[nH]c1=O	CEM + CEM TK-				>40 µM
O=c1[nH]c(=O)n(/C=C\P(=O)(O)O)cc1CO	CEM + CEM-SS			ROD	>200 µM
Cc1cn([C@@H]2O[C@H](CO[Si](C)(C)C(C)(C)C)[C@@H](O)[C@H]2O[Si](C)(C)C(C)(C)C)c(=O)n(CC(=O)ON)c1=O	MT-4		cytopathic effect / trypan blue	ROD	>2 µM
Cc1ccccc1NC(=O)CSc1sc(Cl)nc1-c1ccc(Br)cc1Br	MT-4		MTT	ROD	>26.94 µM
O=c1[nH]cnc2c1ncn2[C@H]1CC[C@@H](CO)O1	PBMC		ELISA	2300	3.35 µM
O=C(c1ccccc1)c1ccc2c(c1)nc1n2C(c2c(F)cccc2Cl)SC1	MT-4		cytopathic effect / MTT	ROD	>26.7 µM
Cc1cn([C@H]2C[C@H](N=[N+]=[N-])[C@@H](CN3C(=O)c4ccc(C(=O)OCC56CC7CC(CC(C7)C5)C6)cc4C3=O)O2)c(=O)[nH]c1=O	CEM		syncytia	ROD	0.11 µM
C[C@H](C[n+]1c[nH]c2c(NCCCCCCCC3CCCCC3)nc(N)nc21)OCP(=O)(O)O	MT-4		cytopathic effect / MTT	ROD	7 ± 2.6 µg/mL
CC(C)(C)OC(=O)N[C@@H](Cc1ccccc1)[C@H](O)CNC[C@@H](O)[C@H](Cc1ccccc1)NC(=O)OC(C)(C)C	CEM + CEM-SS		cytopathic effect / XTT	CBL-20	0.33 µM
CCOP(=O)(/C=C\n1cc(F)c(=O)[nH]c1=O)OCC	CEM + CEM-SS			ROD	>200 µM